PubChem BioAssay AID624099, ICCB-Longwood, 2012
Screen: 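Knock-downs relieving repression by E2 of an HPV18 LCR luciferase reporter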 (primary screen). System: human C33A cervical carcinoma cells (HPV-negative) stably expressing BPV1 E2 and an HPV18 LCR luciferase reporter. Reagents: siRNA pool against human genes, 40 nM. Time to read-out: 72 h. Measured: 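Per-well luciferase luminescence, z-scored on each plate against the plate mean and SD with control wells left out, then averaged across three replicate plates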. Scale: mean z-score and z-score: higher = stronger reporter signal, weaker E2 silencing. Call rule: 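Mean z ≥ 2 together with z ≥ 2 in two or more of the three replicates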.
Here is one part, drawn at random, of about 21,000 reagents. Of all reagents, 497 (2.4%) were called active. 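Higher z means weaker E2 silencing; only reporter increases were scored, and knock-downs that hurt cell survival may mask genuine repressor factors.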 A number with no mark means an inactive call. The numbers tell different reagents against one gene apart. No sequences are given here.

Target gene | pool no. | mean z-score | z-score, replicate A | z-score, replicate B | z-score, replicate C
IFNA2 (interferon alpha 2) | 1 | -0.22 | 0.04 | -0.28 | -0.43
LDHC (lactate dehydrogenase C) | 1 | -0.26 | -0.23 | 0.02 | -0.58
ZRANB2 (zinc finger RANBP2-type containing 2) | 1 | 0.71 | 1.1 | 0.56 | 0.48
GTPBP2 (GTP binding protein 2) | 1 | 1.07 | 1.15 | 0.72 | 1.35
CYP2D7 | 1 | -0.36 | -0.52 | -0.33 | -0.24
DSG2 (desmoglein 2) | 1 | -1.25 | -1.23 | -1.43 | -1.07
FGF1 (fibroblast growth factor 1) | 1 | -0.5 | -0.47 | -0.49 | -0.54
GPX3 (glutathione peroxidase 3) | 1 | -0.75 | -0.97 | -0.42 | -0.85
LOC389341 (retired record) | 1 | -0.94 | -0.83 | -1.42 | -0.57
LOC389562 (retired record) | 1 | 0.2 | 0.46 | -0.06 | 0.2
OCEL1 (occludin/ELL domain containing 1) | 1 | 0.73 | 0.73 | 0.51 | 0.94
KLK4 (kallikrein related peptidase 4) | 1 | -0.31 | -0.45 | -0.28 | -0.21
POTEH (POTE ankyrin domain family member H) | 1 | 1.76 | 1.99 | 1.93 | 1.37
HEBP2 (heme binding protein 2) | 1 | -0.24 | -0.33 | -0.5 | 0.1
TMEFF2 | 1 | 1.12 | 1.11 | 1.15 | 1.11
TMCO4 (transmembrane and coiled-coil domains 4) | 1 | 0.67 | 0.98 | 0.65 | 0.37
ZNF488 (zinc finger protein 488) | 1 | -1.2 | -1.18 | -1.21 | -1.2
SYT17 (synaptotagmin 17) | 1 | 0.47 | 0.71 | 0.5 | 0.21
TRAK1 (trafficking kinesin protein 1) | 1 | -0.82 | -1 | -0.57 | -0.9
CRIP2 (cysteine rich protein 2) | 1 | -1.13 | -1.02 | -1.34 | -1.02
ICA1L (islet cell autoantigen 1 like) | 1 | -0.09 | 0.03 | -0.28 | -0.01
ICA1L (islet cell autoantigen 1 like) | 2 | 0.68 | 0.52 | 0.49 | 1.04
EML2 (EMAP like 2) | 1 | 2.08 (active) | 2.06 | 1.99 | 2.19

Called active, among the entries above:
Target gene | pool no. | mean z-score | z-score, replicate A | z-score, replicate B | z-score, replicate C
EML2 (EMAP like 2) | 1 | 2.08 (active) | 2.06 | 1.99 | 2.19
